Anti-infective test results gathered from many reports (values: NIAID ChemDB through PubChem).

All rows: cytotoxicity tests; measure: CC50

CCn: concentration that lowers growth or viability of the cells by n%. An empty or dashed field is not shown. a–b is a range or a potency band. Lines come from different laboratories, so protocols vary.

structure,cell line,read by,value
CC(O)CNCCCCOc1ccc(Cl)cc1Cc1ccccc1,HepG2,cell count / luminescence,>12.8 µM
Nc1nc(N)c2ncn(C[C@H]3CC[C@@H](CO)C3)c2n1,E6SM,,>400 µg/mL
COC(=O)n1c(=O)nc2c3c(ncn21)Oc1c(c(-c2ccccc2)nn1-c1ccccc1)C3c1ccc(Cl)cc1,VERO,,0.23 µg/mL
COC(=O)Nc1nc2ccc(S(=O)c3ccccc3)cc2[nH]1,E6,,>3 µg/mL
CCCNc1c([N+](=O)[O-])cc(S(N)(=O)=O)cc1[N+](=O)[O-],MDCK cells,,36.6 µM
Nc1nc(=O)n([C@H]2O[C@@H](CO)C[C@H]2F)cc1F,PBM,,>100 µM
CCOc1ccccc1-c1nc2c(s1)C(=O)c1ccccc1C2=O,VERO,,6 µg/mL
COc1ccc2c(c1)CCCN2CCC(=O)N1CCN(c2ccccc2OC)CC1,CD4+ T-cell,MTT / absorbance,80.8 µg/mL
CCN(CC)CCNc1ccc(C)c2sc3cccc(O)c3c(=O)c12,VERO,,1.23 µg/mL
Cc1ccc(Nc2cn(C3C=CC(O)C3)c(=O)n(C3C=CC(O)C3)c2=O)cc1,Vero cells,MTT,>50 µg/mL
CO[C@H]1/C=C/O[C@@]2(C)Oc3c(C)c(O)c4c(O)c(c(/C=N/Nc5ccc([N+](=O)[O-])cc5[N+](=O)[O-])c(O)c4c3C2=O)NC(=O)/C(C)=C\C=C\[C@H](C)[C@H](O)[C@@H](C)[C@@H](O)[C@@H](C)[C@H](OC(C)=O)[C@@H]1C,VERO,,13.34 µg/mL
COC(=O)c1cc([N+](=O)[O-])c(N2CCOCC2)c([N+](=O)[O-])c1,MDCK cells,,>80 µM
CCC(C)CCC[C@H](C)CCN1C[C@H](O)[C@@H](O)[C@H](O)[C@H]1CO,HepG2 2.2.15,,250 µM
O=C(/C=C/c1ccccc1)C1=C(O)C(=O)N(c2ccccc2)C1c1cccc([N+](=O)[O-])c1,GHOST R5,,>100 µM
Cc1cn([C@H]2C[C@H](F)[C@@H](CO)O2)c(=O)[nH]c1=O,REH,,160 µM
C#C[C@]1(CO)O[C@@H](n2cc(F)c3c(N)nc(Cl)nc32)C[C@@H]1O,MT4-GFP,ATP / luminescence,>8.4 µM
COC(=O)N[C@H](C(=O)N1CCC[C@H]1c1ncc(-c2ccc(-c3ccc(-c4cnc([C@@H]5CCCN5C(=O)[C@@H](NC(=O)OC)C(C)C)[nH]4)cc3)cc2)[nH]1)C(C)C,SJCRH30,ATP,14.5 µM
CC1CCN(CCCCOc2ccc(C(=O)c3ccccc3)cc2)CC1,HepG2,cell count / luminescence,>26.8 µM
O=C(Nc1ccc([N+](=O)[O-])cc1)OC(CN1CCCc2ccccc21)c1ccc(Cl)cc1,C8166,MTT / absorbance,18.95 µg/mL
Cc1cc(=O)c2c([nH]1)c1c(c3[nH]c(C)cc(=O)c32)Oc2ccccc2O1,VERO,,56.6 µg/mL
COc1cccc(N2CCN(C(=O)CCN3CCCc4cc(OC)ccc43)CC2)c1,CD4+ T-cell,MTT / absorbance,110 µg/mL
O=C(CC1NCCC[C@@H]1O)Cn1cnc2ccccc2c1=O,L929,MTT,0.167 µg/mL
Nc1ncnc2c1ncn2[C@H]1CC[C@@H](CO)O1,JM,,>1000 µM
COc1ccc(N2C(=O)C(O)=C(C(=O)/C=C/c3ccccc3)C2c2ccc([N+](=O)[O-])cc2)cc1,GHOST R5,,>100 µM
CC(C)Cn1c[n+](Cc2ccc([N+](=O)[O-])cc2)c2c1C(=O)c1ccccc1C2=O,VERO,,29.3 µg/mL
COc1cc([C@H]2Oc3cc([C@H]4Oc5cc(O)cc(O)c5C(=O)[C@@H]4O)ccc3O[C@@H]2CO)ccc1O,HCT-8,,>100 µM
O=C(/C=C/c1ccccc1)C1=C(O)C(=O)N(c2cccc(C(=O)O)c2)C1c1ccc([N+](=O)[O-])cc1,GHOST R5,,>100 µM
N#CC1(c2nc3ccccc3o2)C(=O)C(=O)N(C2C3CC4CC(C3)CC2C4)C(=O)C1=O,VERO,,>10 µg/mL
CC(=O)CCCCn1c(=O)c2c(ncn2C)n(C)c1=O,A3.5,,>>1000 µM
Nc1nc(Cl)c2ncn(C[C@H]3CC[C@@H](CO)C3)c2n1,E6SM,,≥1 µg/mL
Cc1cn([C@H]2C[C@H](N=[N+]=[N-])[C@@H](CO)O2)c(=O)[nH]c1=O,C8166,MTT / absorbance,>100 µM
COc1ccc2c(c1)CCCN2CCC(=O)N1CCN(c2ccc([N+](=O)[O-])cc2)CC1,CD4+ T-cell,MTT / absorbance,>200 µg/mL
O=c1c(O)c(-c2ccccc2)oc2cc(O)cc(O)c12,HCT-8,,>100 µM
CCCc1cc(=O)oc2c3c(c4c(c12)OC(C)(C)C=C4)O[C@H](C)[C@@H](C)[C@@H]3O,MM,,10–20 µM
CCN(CC)CCN(C)Cc1coc(-c2ccccc2)c1Cl.Cl.Cl,VERO,,2 µg/mL
O=c1[nH]cnc2c1ncn2[C@@H]1O[C@@H](CO)C[C@@H]1F,PBM,,>100 µM
c1cc(CN2CCCNCCNCCCNCC2)ccc1CN1CCCNCCNCCCNCC1,MAGI-CCR5,,>10 µM
C/C(=N/NC(=S)N1CCN(c2ccccc2)CC1)c1nccs1,VERO,,0.81 µg/mL
COc1ccc2c(c1)CCCN2CCC(=O)N1CCN(c2ccc(C)cc2)CC1,CD4+ T-cell,MTT / absorbance,86.18 µg/mL
O=c1[nH]c(=O)n([C@H]2O[C@@H](CO)C[C@H]2F)cc1I,PBM,,>100 µM
Nc1nc(N)c2nnn(C[C@H]3CC[C@@H](CO)C3)c2n1,E6SM,,>400 µg/mL
COc1ccc2c(c1)CCCN2CCC(=O)N1CCN(c2ccc(F)cc2)CC1,CD4+ T-cell,MTT / absorbance,85.82 µg/mL
Cc1c2ccncc2c(C)c2c1[nH]c1ccc(O)cc12,VERO,,>10 µg/mL
O=C1CN=C(c2ccccc2)c2ccccc2N1CCC1CC(Br)=NO1,J774.1 macrophage cell line,resazurin / absorbance,22.3 µM
CCCc1cc(=O)oc2c3c(c4c(c12)OC(C)(C)C=C4)O[C@@H](C)[C@H](C)[C@@H]3O,CEMx174,,10–20 µM
CCN(CCO)CCNc1ccc(C)c2sc3cc(Cl)ccc3c(=O)c12,VERO,,4.7 µg/mL
COc1ccc2c(c1)CCCN2CCC(=O)N1CCN(c2cccc(Cl)c2Cl)CC1,CD4+ T-cell,MTT / absorbance,104.1 µg/mL
O=C1c2ccccc2C(=O)c2c1sc1nc3ccccc3n21,VERO,,0.3 µg/mL
Nc1nc2c(ncn2C[C@H]2CC[C@@H](CO)C2)c(=O)[nH]1,E6SM,,>400 µg/mL
O=c1[nH]nc2c3cccc4cccc(c5ccc(O)c1c52)c43,VERO,,3.8 µg/mL
CCCS(=O)c1ccc2nc(NC(=O)OC)[nH]c2c1,E6,,>3 µg/mL
CCC(=O)O[C@H]1C[C@H](n2cc(/C=C/Br)c(=O)[nH]c2=O)O[C@@H]1COP1(=O)OCc2cccc(C)c2O1,P3HR-1,,282 µM
Cc1cccc2c(Nc3ccc(S(N)(=O)=O)cc3)c3ccc([N+](=O)[O-])cc3nc12,HepG2,cell count / luminescence,>24.8 µM
O=C1C=C(Nc2ncccn2)c2ccccc2C1=O,VERO,,0.09 µg/mL
CCCCOc1ccc(Nc2c[nH]c(=O)[nH]c2=O)cc1,A549 cells,MTT,>50 µg/mL
CCCCCCNC(=O)OCCCCCCNC(=O)OC1CCN(C(=O)Oc2ccc(Oc3ccccc3)cc2)CC1,C8166,MTT / absorbance,>100 µM
CCOC(=O)C(NC(=O)c1cccc(Cl)c1)(N1CCN(c2cc3c(cc2F)c(=O)c(C(=O)O)cn3CC)CC1)C(F)(F)F,VERO,,>10 µg/mL
COc1ccc(N2C(=O)C(O)=C(C(=O)/C=C/c3ccccc3)C2c2cccc([N+](=O)[O-])c2)cc1,GHOST R5,,>100 µM
COC(=O)N[C@H](C(=O)N1CCC[C@H]1c1nc2ccc(-c3csc4c(-c5ccc(-c6cnc([C@@H]7CCCN7C(=O)[C@H](NC(=O)OC)c7ccccc7)[nH]6)cc5)csc34)cc2[nH]1)C(C)C,VERO E6,resazurin,>50 µM
Nc1ncnc2c1ccn2[C@@H]1O[C@H](CO)[C@H](O)[C@H]1O,PRK,,10 µg/mL
O=c1c(-c2ccc(O)cc2)coc2cc(O)cc(O)c12,HCT-8,,>100 µM
COC(=O)Nc1nc2ccccc2[nH]1,E6,,>3 µg/mL
Cc1cn([C@H]2O[C@@H](CO)C[C@H]2F)c(=O)[nH]c1=O,PBM,,>100 µM
O=C1C2C3CCC(O3)C2C(=O)N1SC(Cl)(Cl)Cl,VERO,,202.7 µg/mL
CO[C@H]1/C=C/O[C@@]2(C)Oc3c(C)c(O)c4c(O)c(c(/C=N/N5CCN(C)CC5)c(O)c4c3C2=O)NC(=O)/C(C)=C\C=C\[C@H](C)[C@H](O)[C@@H](C)[C@@H](O)[C@@H](C)[C@H](OC(C)=O)[C@@H]1C,Vero cells,MTT,>50 µg/mL
O=C(NNCc1ccccc1)c1ccccn1,VERO,,601 µg/mL
c1ccc2[nH]c(-c3cscn3)nc2c1,E6,,>3 µg/mL
CC1(C)OCC(CCCCN2C[C@H](O)[C@@H](O)[C@H](O)[C@H]2CO)O1,HepG2 2.2.15,,>1000 µM
O=C(CC1NCCC[C@@H]1O)Cn1cnc2c(c1=O)CCCC2,L929,MTT,73.8 µg/mL
COC(=O)N[C@H](C(=O)N[C@@H](Cc1ccccc1)[C@@H](O)CN(Cc1ccc(-c2ccccn2)cc1)NC(=O)[C@@H](NC(=O)OC)C(C)(C)C)C(C)(C)C,TM-31,MTT,>100 µM
O=[N+]([O-])c1cc(C(F)(F)F)cc([N+](=O)[O-])c1N1CCCCC1,MDCK cells,,>80 µM
CC[C@H]1C[C@H]2CC[C@H](O2)[C@H](C)C(=O)O[C@H](C)C[C@@H]2CC[C@@H](O2)[C@H](C)C(=O)O[C@@H](CC)C[C@H]2CC[C@H](O2)[C@H](C)C(=O)O[C@H](C)C[C@@H]2CC[C@@H](O2)[C@H](C)C(=O)O1,VERO,,0.4 µg/mL
OC[C@@H]1[C@@H](O)[C@H](O)[C@@H](O)CN1CCCCCCCCCCN1C[C@H](O)[C@@H](O)[C@H](O)[C@H]1CO,HepG2 2.2.15,,>1000 µM
Cc1cccc2c1OP(=O)(OC[C@H]1O[C@@H](n3cc(/C=C/Br)c(=O)[nH]c3=O)C[C@@H]1OC(=O)C(C)C)OC2,P3HR-1,,104 µM
NC(=O)c1[nH]c2ccc(Cl)cc2c1S(=O)(=O)c1ccccc1,Lymphocytes,,>20 µM
COc1ccc(C/C=C/C=C/C(=O)NCC(C)C)cc1,J774 macrophages,MTT / absorbance,77.05 µg/mL
COc1cc2c(cc1OC)CN(Cc1ccc(O)cc1)CC2,KB cells,,>20 µg/mL
O=C1OC(Oc2ccc(-c3ccccc3)cc2)C(NCCNc2ccnc3cc(Cl)ccc23)C1Br,CHO,MTT,1.82 µg/mL
Cc1cc(O)c2c(c1)C(=O)C(c1c(C)cc3c(c1O)C(=O)C1OC1C3=O)=CC2=O,VERO,,<0.41 µg/mL
CC(C)CN(C[C@@H](O)[C@H](Cc1cc(F)cc(F)c1)NC(=O)O[C@H]1CCO[C@H]2OCC[C@H]21)S(=O)(=O)c1ccc2nc(NC(C)C)sc2c1,HKBMM,MTT,>100 µM
O=c1c2ccccc2ncn1CCCC1NCCC[C@@H]1O,L929,MTT,4.45 µg/mL
O=c1[nH]c(=O)n([C@H]2O[C@@H](CO)C[C@H]2F)cc1F,PBM,,>100 µM
O=C(CC1NCCC[C@@H]1O)Cn1cnc2c(c1=O)CCCCC2,L929,MTT,58.4 µg/mL
CNC(=O)c1cc([N+](=O)[O-])c(N2CCOCC2)c([N+](=O)[O-])c1,MDCK cells,,96 µM
CC(NCC(O)COc1ccccc1C(C)(C)C)c1ccccc1,HepG2,cell count / luminescence,>27.3 µM
C[C@@H]1CC[C@H]2[C@@H](C)C(=O)O[C@@H]3OC4(C)CC[C@@H]1[C@]32OO4,Noncancerous Vero cell line,neutral red,>10 µM
Nc1ncnc2c1ncn2[C@H]1O[C@@H](CO)C[C@H]1F,PBM,,>100 µM
COc1cc2c(cc1O)[C@@H]1Cc3ccc(OC)c(O)c3CN1CC2,Vero cells,,>20 µg/mL
Cc1ccc(Nc2c[nH]c(=O)[nH]c2=O)cc1,A549 cells,MTT,>50 µg/mL
CCCN(CCC)c1c([N+](=O)[O-])cc(S(N)(=O)=O)cc1[N+](=O)[O-],MDCK cells,,3.9 µM
C=C1CC[C@H](O)[C@@]2(C)CC[C@H](C(C)C)C[C@]12O,HOG.R5,,>20 µg/mL

5 of the rows above, restated:

structure	cell line	read by	value
CCN(CCO)CCNc1ccc(C)c2sc3cc(Cl)ccc3c(=O)c12	VERO		4.7 µg/mL
Nc1nc(N)c2ncn(C[C@H]3CC[C@@H](CO)C3)c2n1	E6SM		>400 µg/mL
O=[N+]([O-])c1cc(C(F)(F)F)cc([N+](=O)[O-])c1N1CCCCC1	MDCK cells		>80 µM
O=c1[nH]nc2c3cccc4cccc(c5ccc(O)c1c52)c43	VERO		3.8 µg/mL
COc1ccc(C/C=C/C=C/C(=O)NCC(C)C)cc1	J774 macrophages	MTT / absorbance	77.05 µg/mL